Biological target: FNT wild-type (Plasmodium falciparum, UniProt O77389)
Experiment: yeast test system, 14C-L-lactate uptake, FNT wild-type expressed in Saccharomyces cerevisiae
Assay type: cell-based
Conditions: read-out: IC50 against FNT wild-type, 15 to 20 min preincubation, 1 mM lactate, pH 6.8
Source text: The FNT of the wild-type plasmodium (available under accession number PF3D7_0316600 in the data bank PlasmoDB) and of the resistant plasmodia (position of the mutation in the open reading frame: guanine 319 to adenine) were expressed in the yeast Saccharomyces cerevisiae W303-1A jen1Δ ady2Δ from plasmid pDR196 (PMA promoter). In the yeast, the endogenous genes for the monocarboxylate transporter Jenlp (sequence accession No. CAA82062 NCBI) and Ady2p (sequence accession No. KZV 12856) were deleted (obtained from M. Casal, Universidade do Minho, Portugal).
This yeast was grown in SD medium with addition of adenine, histidine, leucine, tryptophan and 2% (wt/v) glucose at 30° C. up to an OD600 of 0.8 to 1.0, harvested by centrifugation and washed once with water and centrifuged down again, and suspended in 50 mM HEPES/TRIS (pH 6.8) and adjusted to an OD600 of 50±10% and stored on ice. […] After 24 h of incubation at 18° C. in the scintillation cocktail, in which the cells were lysed, the amount of radioactively labelled lactate was measured by means of a scintillation counter. The total amount of lactate which was taken up by the yeast was calculated from the measured amount of radioactively labelled lactate. […]

Chains of the proteins cited; added tags and fusions are not shown.
UniProt O77389, whole entry: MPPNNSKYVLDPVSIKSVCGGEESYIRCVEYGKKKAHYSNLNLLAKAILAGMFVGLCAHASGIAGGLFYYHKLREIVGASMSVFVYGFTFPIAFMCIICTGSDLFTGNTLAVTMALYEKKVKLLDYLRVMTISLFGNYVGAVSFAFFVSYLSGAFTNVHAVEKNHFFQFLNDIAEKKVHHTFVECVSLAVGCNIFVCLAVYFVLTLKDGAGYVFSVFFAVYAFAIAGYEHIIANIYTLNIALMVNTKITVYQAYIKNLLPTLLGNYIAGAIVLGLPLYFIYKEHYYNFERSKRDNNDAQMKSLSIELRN

O=C(/C=C(\O)C(F)(F)C(F)(F)F)c1cccc(Cl)c1O
IC50: 250 nM
